## Replication capacity of HIV-1 mutants, protease

Data from the supplement of Al-Mawsawi et al. 2014, doi:10.1186/s12977-014-0124-6.

Protein: protease of HIV-1 NL4-3, numbered from its first residue. The source prints no sequence; the chain below is taken from UniProt P12497, a closely related isolate, and fits the source at the 87 positions it covers.
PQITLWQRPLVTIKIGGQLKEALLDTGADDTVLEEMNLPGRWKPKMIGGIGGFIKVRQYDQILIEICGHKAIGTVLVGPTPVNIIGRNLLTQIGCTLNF
The overlapping Gag p6 frame may change too; the source does not say.
Effects on overlapping genes or RNA elements are not listed.

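Random point mutant libraries of HIV-1 NL4-3, one for each of seven fragments, were passaged in CEM T lymphocytes. Sequencing gave the RC index: frequency after two rounds over frequency in the input plasmid.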

A higher RC index is a better tolerated change; approximate classes are lethal up to 0.1, attenuated to 0.2, tolerated above.
Each entry names the wild-type residue, its position and the residue put in its place.
Nucleotide positions follow pNL4-3.
Clones carried about five changes per kilobase, which can drag down the index of neutral changes.
The authors read an index above 1 as above wild type (1.9% of all changes in the genome).

| # | mutation | base | RC index |
|---|---|---|---|
| 1 | V32L | G2346T | 0.0935 |
| 2 | L76S | T2479C | 0.0842 |
| 3 | G51E | G2404A | 0.660 |
| 4 | I13V | A2289G | 0.0318 |
| 5 | L76V | T2478G | 0.0441 |
| 6 | N88S | A2515G | 0.188 |
| 7 | V82L | G2496C | 0.0913 |
| 8 | L90S | T2521C | 0.0719 |
| 9 | T12K | C2287A | 0.0899 |
| 10 | R57K | G2422A | 0.180 |
| 11 | H69R | A2458G | 0.0565 |
| 12 | Q58R | A2425G | 0.0727 |
| 13 | E34G | A2353G | 0.0447 |
| 14 | P79H | C2488A | 0.188 |
| 15 | T80R | C2491G | 0.0622 |
| 16 | P1L | C2254T | 0.418 |
| 17 | L38M | T2364A | 0.0342 |
| 18 | G48R | G2394C | 0.160 |
| 19 | Q18L | A2305T | 0.0280 |
| 20 | I50T | T2401C | 0.183 |
| 21 | W42R | T2376C | 0.0623 |
| 22 | W6L | G2269T | 0.0572 |
| 23 | E65D | A2447T | 0.0362 |
| 24 | V11I | G2283A | 0.260 |
| 25 | I85V | A2505G | 0.0868 |
| 26 | Q92R | A2527G | 0.201 |
| 27 | R87I | G2512T | 0.0678 |
| 28 | L23P | T2320C | 0.142 |
| 29 | I15V | A2295G | 0.0535 |
| 30 | K14R | A2293G | 0.0264 |
| 31 | F53S | T2410C | 0.105 |
| 32 | V32A | T2347C | 0.710 |
| 33 | K20T | A2311C | 0.578 |
| 34 | V11D | T2284A | 0.0230 |
| 35 | T80A | A2490G | 0.0467 |
| 36 | G48W | G2394T | 0.0884 |
| 37 | D30A | A2341C | 0.114 |
| 38 | K20E | A2310G | 0.0430 |
| 39 | G16A | G2299C | 0.0314 |
| 40 | V75G | T2476G | 0.0266 |
| 41 | T96A | A2538G | 0.0528 |
| 42 | R57G | A2421G | 0.0691 |
| 43 | L97I | T2541A | 0.0695 |
| 44 | L38F | G2366T | 0.187 |
| 45 | L97V | T2541G | 0.0547 |
| 46 | A71D | C2464A | 0.231 |
| 47 | E35D | A2357T | 0.0551 |
| 48 | T31A | A2343G | 0.102 |
| 49 | G17R | G2301A | 0.0887 |
| 50 | V56L | G2418T | 0.0511 |
| 51 | I85N | T2506A | 0.0819 |
| 52 | D30Y | G2340T | 0.524 |
| 53 | R57I | G2422T | 0.213 |
| 54 | T74I | C2473T | 0.0622 |
| 55 | I72T | T2467C | 0.0632 |
| 56 | K20R | A2311G | 0.203 |
| 57 | K70N | A2462T | 0.0576 |
| 58 | N37D | A2361G | 0.0783 |
| 59 | N37I | A2362T | 0.0616 |
| 60 | K45I | A2386T | 0.0456 |
| 61 | L63P | T2440C | 0.156 |
| 62 | M46T | T2389C | 0.100 |
| 63 | D30V | A2341T | 0.0255 |
| 64 | G94R | G2532C | 0.0490 |
| 65 | A71G | C2464G | 0.0562 |
| 66 | C67F | G2452T | 0.0346 |
| 67 | T4I | C2263T | 0.233 |
| 68 | L19I | T2307A | 0.0717 |
| 69 | G16R | G2298A | 0.156 |
| 70 | Q58K | C2424A | 0.121 |
| 71 | Q61K | C2433A | 0.156 |
| 72 | N88Y | A2514T | 0.0431 |
| 73 | E65K | G2445A | 0.513 |
| 74 | V75L | G2475T | 0.0805 |
| 75 | G52A | G2407C | 0.0650 |
| 76 | G52V | G2407T | 0.748 |
| 77 | P79L | C2488T | 0.0848 |
| 78 | P81R | C2494G | 0.0605 |
| 79 | G73S | G2469A | 0.197 |
| 80 | K55N | A2417T | 0.0351 |
| 81 | R41G | A2373G | 0.0553 |
| 82 | R8L | G2275T | 0.100 |
| 83 | L19S | T2308C | 0.0643 |
| 84 | Y59H | T2427C | 0.218 |
| 85 | T12S | A2286T | 0.0238 |
| 86 | C95R | T2535C | 0.328 |
| 87 | I93T | T2530C | 0.0713 |
| 88 | R57S | A2423T | 0.0357 |
| 89 | A22P | G2316C | 0.129 |
| 90 | A71S | G2463T | 0.0503 |
| 91 | K20N | G2312T | 0.0667 |
| 92 | I72V | A2466G | 0.0434 |

8 of these entries, quoted again:

* C67F (base G2452T) -> 0.0346
* R57I (base G2422T) -> 0.213
* H69R (base A2458G) -> 0.0565
* R41G (base A2373G) -> 0.0553
* E35D (base A2357T) -> 0.0551
* R87I (base G2512T) -> 0.0678
* V75G (base T2476G) -> 0.0266
* L76S (base T2479C) -> 0.0842